Compound potency records, mixed from different reports. Data source: NIAID ChemDB in PubChem.

All rows: whole-cell or culture tests; organism: Staphylococcus aureus

A number after MIC or MFC names an inhibition level or a share of isolates.

structure	strain or isolate	measure	result
COC(=O)NC[C@H]1CN(c2ccc3c(c2)-n2cccc2COC3)C(=O)O1	ATCC 49951 (SMITH)	MIC	4 µg/mL
CC[C@H]1OC(=O)[C@H](C)C(=O)[C@H](C)[C@@H](O[C@@H]2O[C@H](C)C[C@H](N(C)C)[C@H]2O)[C@@]2(C)C[C@@H](C)C(=NC(C)=O)[C@H](C)C(OC/C(=C\C=C\c3ccc(OC)cc3)CO2)[C@]1(C)O	29213 (erythromycin-susceptible)	MIC	0.5 µg/mL
CC[C@H]1OC(=O)[C@@](C)(F)C(=O)[C@H](C)[C@@H](O[C@@H]2O[C@H](C)C[C@H](N(C)C)[C@H]2O)[C@@]2(C)C[C@@H](C)C(=NC(C)=O)[C@H](C)[C@@H](OC/C(=N\OCc3ccc(C(N)=O)cc3)CO2)[C@]1(C)O	27660 (erythromycin A -resistant)	MIC	0.13 µg/mL
CS(=O)(=O)N[C@@H]1CCN(c2ccc(N3C[C@H](COc4ccon4)OC3=O)cc2F)C1	078 (oxford)	MIC	1 µg/mL
CC[C@H]1OC(=O)[C@@](C)(F)C(=O)[C@H](C)[C@@H](O[C@@H]2O[C@H](C)C[C@H](N(C)C)[C@H]2O)[C@@]2(C)C[C@@H](C)C(=NC(C)=O)[C@H](C)[C@@H](OC/C(=N\OCc3ccc(-n4cccn4)nc3)CO2)[C@]1(C)O	27660 (erythromycin A -resistant)	MIC	0.13 µg/mL
Cc1c(NC2CC2)c(F)cc2c(=O)c(C(=O)O)cn(-c3cc(N)c(F)cc3F)c12	W806 (methicillin-resistant)	MIC	0.25 µg/mL
O=C(NC[C@H]1CN(c2ccc3c(c2)-n2cccc2COC3)C(=O)O1)C(Cl)Cl	ATCC 29213 (MSSA)	MIC	4 µg/mL
CNc1c(F)cc2c(=O)c(C(=O)O)cn(-c3cc(N)c(F)cc3F)c2c1C	27 isolates	MIC90	0.015 µg/mL
CC[C@H]1OC(=O)[C@H](C)C(=O)[C@H](C)[C@@H](O[C@@H]2O[C@H](C)C[C@H](N(C)C)[C@H]2O)[C@@]2(C)C[C@@H](C)C(=NC(C)=O)[C@H](C)[C@@H](OC/C(=N\OCc3ccc(-c4ncccn4)s3)CO2)[C@]1(C)O	29213 (erythromycin A-susceptible)	MIC	0.25 µg/mL
CCCCCCCCCCCC[N+](C)(C)CSCCC	ATCC33592	MBC	29.6 µM
O=C(NC[C@H]1CN(c2ccc3c(c2)-n2cccc2COC3)C(=O)O1)OCc1ccccc1	ATCC 33591 (MRSA)	MIC	>32 µg/mL
CC[C@H]1OC(=O)[C@@](C)(F)C(=O)[C@H](C)[C@@H](O[C@@H]2O[C@H](C)C[C@H](N(C)C)[C@H]2O)[C@@]2(C)C[C@@H](C)C(=NC(C)=O)[C@H](C)[C@@H](OC/C(=N\OCC#Cc3cccc(N)n3)CO2)[C@]1(C)O	29213 (erythromycin A-susceptible)	MIC	0.13 µg/mL
CC[C@H]1OC(=O)[C@H](C)C(=O)[C@H](C)[C@@H](O[C@@H]2O[C@H](C)C[C@H](N(C)C)[C@H]2O)[C@@]2(C)C[C@@H](C)C(=NC(C)=O)[C@H](C)C(OC/C(=C\C=C\c3ccc([N+](=O)[O-])cc3)CO2)[C@]1(C)O	29213 (erythromycin-susceptible)	MIC	0.5 µg/mL
CC(=S)NC[C@H]1CN(c2ccc3c(c2)-n2cccc2COC3)C(=O)O1	ATCC 33591 (MRSA)	MIC	0.5 µg/mL
CC[C@H]1OC(=O)[C@H](C)C(=O)[C@H](C)[C@@H](O[C@@H]2O[C@H](C)C[C@H](N(C)C)[C@H]2O)[C@@]2(C)C[C@@H](C)C(=NC(C)=O)[C@H](C)C(OC/C(=C\C#Cc3ccc(N)nc3)CO2)[C@]1(C)O	27660 (erythromycin-resistant)	MIC	0.13 µg/mL
CCCC/C=C/C(=O)NC[C@H]1CN(c2ccc3c(c2)-n2cccc2COC3)C(=O)O1	ATCC 33591 (MRSA)	MIC	>32 µg/mL
CS(=O)(=O)N[C@H]1CCN(c2ccc(N3C[C@H](CNc4ccon4)OC3=O)cc2F)C1	078 (oxford)	MIC	0.25 µg/mL
CCCCCCCCCCCC[N+](C)(C)COCCC	ATCC33592	MIC	1.55 µM
C[C@@H](CO)Nc1cc2c(cc1F)c(=O)c(C(=O)O)cn2C1CC1	ATCC 5278 (methicillin-resistant)	MIC	6.25 µg/mL
Nc1cn(-c2ccc(N3C[C@H](COc4ccccn4)OC3=O)cc2F)cn1	004 (methicillin quinolone-resistant)	MIC	2 µg/mL
CC[C@H]1OC(=O)[C@H](C)C(=O)[C@H](C)[C@@H](O[C@@H]2O[C@H](C)C[C@H](N(C)C)[C@H]2O)[C@@]2(C)C[C@@H](C)C(=NC(C)=O)[C@H](C)C(OC/C(=C\c3ccccc3)CO2)[C@]1(C)O	33591 (erythromycin methicillin-resistant)	MIC	>64 µg/mL
CCCCCCCCCCCC[N+](C)(C)COCC(C)CCC	ATCC 6538	MIC	1.65 µM
NCCCCCCCCCCCCNc1cc2c(cc1F)c(=O)c(C(=O)O)cn2C1CC1	ATCC 6538P	MIC	>100 µg/mL
CCCCCCCCCCCC[N+](C)(C)COC(C)C	ATCC33592	MIC	9.32 µM
CCCNCCNc1cc2c(cc1F)c(=O)c(C(=O)O)cn2C1CC1	ATCC 6538P	MIC	>100 µg/mL
Cc1c(NCCO)c(F)cc2c(=O)c(C(=O)O)cn(-c3cc(N)c(F)cc3F)c12	W806 (methicillin-resistant)	MIC	2 µg/mL
CO/N=C1\CN(c2nc3c(cc2F)c(=O)c(C(=O)O)cn3C2CC2)CC1CN	KU2244	MIC	0.125 µg/mL
CC[C@H]1OC(=O)[C@H](C)C(=O)[C@H](C)[C@@H](O[C@@H]2O[C@H](C)C[C@H](N(C)C)[C@H]2O)[C@@]2(C)C[C@@H](C)C(=NC(C)=O)[C@H](C)C(OC/C(=C\c3cnc4ccccc4c3)CO2)[C@]1(C)O	33591 (erythromycin methicillin-resistant)	MIC	>64 µg/mL
CC[C@H]1OC(=O)[C@H](C)C(=O)[C@H](C)[C@@H](O[C@@H]2O[C@H](C)C[C@H](N(C)C)[C@H]2O)[C@@]2(C)C[C@@H](C)C(=NC(C)=O)[C@H](C)[C@@H](OC/C(=N\OCC#Cc3ccc(N)nc3)CO2)[C@]1(C)O	33591 (erythromycin methicillin-resistant)	MIC	>64 µg/mL
CC(=O)NC[C@H]1CN(c2ccc3c(c2)-n2cccc2COC3)C(=O)O1	ATCC 29213 (MSSA)	MIC	2 µg/mL
CC[C@H]1OC(=O)[C@H](C)C(=O)[C@H](C)[C@@H](O[C@@H]2O[C@H](C)C[C@H](N(C)C)[C@H]2O)[C@@]2(C)C[C@@H](C)C(=NC(C)=O)[C@H](C)[C@@H](OC/C(=N\OCCc3ccccc3)CO2)[C@]1(C)O	27660 (erythromycin-resistant)	MIC	0.5 µg/mL
CC(C)NCCNc1cc2c(cc1F)c(=O)c(C(=O)O)cn2C1CC1	ATCC 5278 (methicillin-resistant)	MIC	100 µg/mL
CCC(=O)NC[C@H]1CN(c2ccc3c(c2)-n2cccc2COC3)C(=O)O1	ATCC 29213 (MSSA)	MIC	4 µg/mL
C=C1COC2[C@@H](C)C(=NC(C)=O)[C@H](C)C[C@@](C)(OC1)[C@H](O[C@@H]1O[C@H](C)C[C@H](N(C)C)[C@H]1O)[C@@H](C)C(=O)[C@@H](C)C(=O)O[C@H](CC)[C@@]2(C)O	29213 (erythromycin-susceptible)	MIC	1 µg/mL
CCCCCCCCCCCC[N+](C)(C)COC(C)CCC	ATCC33592	MBC	14.3 µM
O=CNC[C@H]1CN(c2ccc3c(c2)-n2cccc2COC3)C(=O)O1	ATCC 49951 (SMITH)	MIC	8 µg/mL
CC[C@H]1OC(=O)[C@H](C)C(=O)[C@H](C)[C@@H](O[C@@H]2O[C@H](C)C[C@H](N(C)C)[C@H]2O)[C@@]2(C)C[C@@H](C)C(=NC(C)=O)[C@H](C)C(OC/C(=C\C#Cc3ccc(N)cc3)CO2)[C@]1(C)O	29213 (erythromycin-susceptible)	MIC	0.13 µg/mL
CC[C@H]1OC(=O)[C@H](C)C(=O)[C@H](C)[C@@H](O[C@@H]2O[C@H](C)C[C@H](N(C)C)[C@H]2O)[C@@]2(C)C[C@@H](C)C(=NC(C)=O)[C@H](C)[C@@H](OC/C(=N\OCc3cccc(N)n3)CO2)[C@]1(C)O	33591 (erythromycin methicillin-resistant)	MIC	>64 µg/mL
CC[C@H]1OC(=O)[C@H](C)C(=O)[C@H](C)[C@@H](O[C@@H]2O[C@H](C)C[C@H](N(C)C)[C@H]2O)[C@](C)(OC)C[C@@H](C)C(=O)[C@H](C)[C@H]2N(CCCCn3cnc(-c4cccnc4)c3)C(=O)O[C@]12C	29213 (erythromycin A-susceptible)	MIC	0.13 µg/mL
CCN(CC)CCNc1cc2c(cc1F)c(=O)c(C(=O)O)cn2C1CC1	ATCC 5278 (methicillin-resistant)	MIC	>100 µg/mL
CC[C@H]1OC(=O)[C@H](C)C(=O)[C@H](C)[C@@H](O[C@@H]2O[C@H](C)C[C@H](N(C)C)[C@H]2O)[C@@]2(C)C[C@@H](C)C(=NC(C)=O)[C@H](C)C(OC/C(=N\OCc3ccccc3)CO2)[C@]1(C)O	33591 (erythromycin methicillin-resistant)	MIC	>64 µg/mL
O=C1O[C@@H](CNc2ccon2)CN1c1ccc(-n2cnc(CO)c2)c(F)c1	122 (novobiocin-resistant)	MIC	0.5 µg/mL
CC[C@H]1OC(=O)[C@H](C)C(=O)[C@H](C)[C@@H](O[C@@H]2O[C@H](C)C[C@H](N(C)C)[C@H]2O)[C@@]2(C)C[C@@H](C)C(=NC(C)=O)[C@H](C)C(OC/C(=C\C#Cc3cccnc3)CO2)[C@]1(C)O	33591 (erythromycin methicillin-resistant)	MIC	>64 µg/mL
CNCCCN(C)c1cc2c(cc1F)c(=O)c(C(=O)O)cn2C1CC1	ATCC 6538P	MIC	1.56 µg/mL
CC[C@H]1OC(=O)[C@H](C)[C@@H](O[C@H]2C[C@@](C)(OC)[C@@H](O)[C@H](C)O2)[C@H](C)[C@@H](O[C@H]2O[C@@H](C)C[C@@H](N(C)C)[C@@H]2O)[C@](C)(O)C[C@@H](C)C(=O)[C@H](C)[C@@H](O)[C@]1(C)O	33591 (erythromycin methicillin-resistant)	MIC	>64 µg/mL
NCCCCCCCCCNc1cc2c(cc1F)c(=O)c(C(=O)O)cn2C1CC1	ATCC 5278 (methicillin-resistant)	MIC	>100 µg/mL
CC[C@H]1OC(=O)[C@H](C)C(=O)[C@H](C)[C@@H](O[C@@H]2O[C@H](C)C[C@H](N(C)C)[C@H]2O)[C@@]2(C)C[C@@H](C)C(=NC(C)=O)[C@H](C)[C@@H](OC/C(=N\OCc3ccc(-c4cccc(N)n4)s3)CO2)[C@]1(C)O	27660 (erythromycin A -resistant)	MIC	0.25 µg/mL

For reference, 7 entries again:

structure | strain or isolate | measure | result
CC[C@H]1OC(=O)[C@H](C)C(=O)[C@H](C)[C@@H](O[C@@H]2O[C@H](C)C[C@H](N(C)C)[C@H]2O)[C@@]2(C)C[C@@H](C)C(=NC(C)=O)[C@H](C)C(OC/C(=C\C=C\c3ccc([N+](=O)[O-])cc3)CO2)[C@]1(C)O | 29213 (erythromycin-susceptible) | MIC | 0.5 µg/mL
CCCCCCCCCCCC[N+](C)(C)CSCCC | ATCC33592 | MBC | 29.6 µM
CC[C@H]1OC(=O)[C@@](C)(F)C(=O)[C@H](C)[C@@H](O[C@@H]2O[C@H](C)C[C@H](N(C)C)[C@H]2O)[C@@]2(C)C[C@@H](C)C(=NC(C)=O)[C@H](C)[C@@H](OC/C(=N\OCc3ccc(C(N)=O)cc3)CO2)[C@]1(C)O | 27660 (erythromycin A -resistant) | MIC | 0.13 µg/mL
CCCCCCCCCCCC[N+](C)(C)COCCC | ATCC33592 | MIC | 1.55 µM
CCCC/C=C/C(=O)NC[C@H]1CN(c2ccc3c(c2)-n2cccc2COC3)C(=O)O1 | ATCC 33591 (MRSA) | MIC | >32 µg/mL
CC[C@H]1OC(=O)[C@H](C)C(=O)[C@H](C)[C@@H](O[C@@H]2O[C@H](C)C[C@H](N(C)C)[C@H]2O)[C@@]2(C)C[C@@H](C)C(=NC(C)=O)[C@H](C)C(OC/C(=C\C=C\c3ccc(OC)cc3)CO2)[C@]1(C)O | 29213 (erythromycin-susceptible) | MIC | 0.5 µg/mL
CC(=S)NC[C@H]1CN(c2ccc3c(c2)-n2cccc2COC3)C(=O)O1 | ATCC 33591 (MRSA) | MIC | 0.5 µg/mL

Lines come from different laboratories, so protocols vary.